# Sequence variants of PSTVd loop 27 after infection

The measurements come from Wu et al. 2024 (doi:10.1371/journal.ppat.1012142).

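A pool of all variants was put on leaves of three Nicotiana benthamiana plants. Samples came from the inoculated region at 5 days, the leaf margin at 10 and upper systemic leaves at 12.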

The pool varies loop 27 of the PSTVd intermediate strain in the pattern UNNNNA; wild type is UUUUCA (5' to 3', with the closing base pair).

Numbers give reads per thousand; 0 = not seen among the reads, higher = more abundant.
Each site shows the three plants.
"Pool" is the share in the plasmid pool used as inoculum, on the same scale.
The inoculated region was read from the minus strand, the other sites from the plus strand.
IR is the inoculated region, LM the leaf margin, Sys the systemic leaves.
The authors trace changes outside the varied positions to PCR and sequencing errors or to mutation in the plant; presence does not show that a variant is infectious alone.

| sequence | pool | IR | LM | Sys |
|---|---|---|---|---|
| UCCACA | 0.557 | 0.494 / 0.655 / 0.510 | 0.0333 / 0 / 0.0258 | 0.0161 / 0.0153 / 0.0590 |
| UCCAGA | 2.27 | 1.60 / 1.85 / 1.46 | 0 / 0.0302 / 0.0258 | 0 / 0.168 / 0.0197 |
| UCCAUA | 2.00 | 0.564 / 0.475 / 0.189 | 0 / 0.0302 / 0.155 | 0 / 0.0153 / 0 |
| UCCCAA | 3.54 | 3.65 / 3.32 / 2.34 | 0.200 / 0.181 / 0.0258 | 0.0322 / 0.0153 / 0 |
| UCCCCA | 0.543 | 0.0176 / 0.0491 / 0.0189 | 0 / 0 / 0.620 | 0 / 0 / 0.0197 |
| UCCCGA | 1.59 | 0.406 / 0.442 / 0.284 | 0 / 0.0605 / 0.310 | 0.0161 / 0 / 0 |
| UCCCUA | 2.97 | 1.09 / 1.52 / 1.32 | 0.0666 / 0.605 / 0 | 0.0161 / 0.0153 / 0.0393 |
| UCCGAA | 1.89 | 0.741 / 0.687 / 0.775 | 0.0333 / 0 / 0 | 0 / 0 / 0.0393 |
| UCCGCA | 0.978 | 0.194 / 0.180 / 0.151 | 0 / 0.0302 / 0 | 0 / 0 / 0 |
| UCCGGA | 2.42 | 1.23 / 0.851 / 1.02 | 0.0333 / 0.0605 / 0 | 0 / 0.0306 / 0.0197 |
| UCCGUA | 2.35 | 0.441 / 0.475 / 0.321 | 0.0333 / 0.0302 / 0 | 0 / 0.0306 / 0 |
| UCCUAA | 2.57 | 1.39 / 1.67 / 1.42 | 0.333 / 0.0907 / 0.155 | 0 / 0 / 0 |
| UCCUAC | 0.136 | 0.0176 / 0 / 0 | 0 / 0 / 0 | 0 / 0 / 0 |
| UCCUCA | 0.530 | 1.15 / 1.54 / 0.832 | 0 / 0.0907 / 0.0517 | 0.386 / 0 / 0.0197 |
| UCCUGA | 1.45 | 1.32 / 1.37 / 1.04 | 0 / 0.121 / 0.233 | 0.0322 / 0.0306 / 0.0590 |
| UCCUUA | 3.52 | 1.50 / 1.75 / 1.57 | 0.0333 / 0.0605 / 0.0258 | 0.0322 / 0 / 0 |
| UCGAAA | 4.32 | 2.42 / 3.01 / 2.91 | 1.00 / 0.0907 / 0.258 | 0.0161 / 0.199 / 0.0787 |
| UCGACA | 1.67 | 2.56 / 2.93 / 3.16 | 0.366 / 0.181 / 0.0258 | 0 / 0.0153 / 0.118 |
| UCGAGA | 4.21 | 2.49 / 3.47 / 2.70 | 0.100 / 0.212 / 0.310 | 0.0482 / 0 / 0.0590 |
| UCGAUA | 2.92 | 1.57 / 1.70 / 1.47 | 0.433 / 0.665 / 0.0258 | 0.0161 / 0.0764 / 0 |
| UCGCAA | 3.46 | 1.32 / 1.64 / 1.17 | 0.100 / 0.151 / 0 | 0.0161 / 0.0153 / 0.0197 |
| UCGCCA | 2.40 | 0.600 / 0.524 / 0.454 | 0.0333 / 0.514 / 0 | 0.0161 / 0 / 0.0393 |
| UCGCGA | 3.90 | 1.78 / 2.16 / 1.61 | 0.833 / 0.998 / 0.723 | 0.0161 / 0 / 0 |
| UCGCUA | 1.29 | 0.511 / 0.818 / 0.454 | 0 / 0.0302 / 0.0775 | 0 / 0.0153 / 0 |
| UCGGAA | 4.29 | 2.66 / 3.11 / 2.57 | 0.167 / 0.816 / 0.258 | 0.0161 / 0.107 / 0.0984 |
| UCGGCA | 2.43 | 0.670 / 0.933 / 0.567 | 0 / 0.0605 / 0 | 0.0322 / 0 / 0.0590 |
| UCGGGA | 10.5 | 5.47 / 4.99 / 3.86 | 0.0333 / 0.544 / 0.491 | 0.0482 / 0.168 / 0.118 |
| UCGGUA | 2.74 | 1.80 / 1.65 / 1.68 | 0.366 / 0.121 / 0.439 | 0.0161 / 0.0459 / 0 |
| UCGUAA | 2.85 | 3.93 / 4.58 / 4.91 | 1.97 / 0.484 / 0.620 | 0.225 / 0.0459 / 0.0984 |
| UCGUCA | 1.37 | 2.05 / 1.80 / 1.74 | 0 / 0.0605 / 0.0258 | 0.0161 / 0.0153 / 0 |
| UCGUGA | 4.24 | 4.60 / 4.06 / 4.29 | 1.77 / 0.514 / 0.0517 | 0.0482 / 0.107 / 0.0393 |
| UCGUUA | 4.25 | 2.12 / 2.75 / 2.84 | 0.633 / 0.0907 / 0.0517 | 0.0322 / 0.0306 / 0.0590 |
| UCUAAA | 5.91 | 2.75 / 3.22 / 2.08 | 0.600 / 0.151 / 0.207 | 0.0322 / 0.0306 / 0.0787 |
| UCUACA | 0.394 | 0.582 / 0.458 / 0.794 | 0 / 0.0605 / 0 | 0.0161 / 0.0611 / 0.0197 |
| UCUAGA | 1.85 | 0.511 / 0.835 / 0.718 | 0.0333 / 0.0605 / 0 | 0.0161 / 0.0306 / 0 |
| UCUAUA | 2.65 | 0.511 / 1.05 / 0.680 | 0.0666 / 0.0907 / 0.0517 | 0 / 0.0153 / 0.0393 |
| UCUCAA | 3.52 | 1.83 / 2.23 / 1.74 | 0.0333 / 0.0605 / 0 | 0.0161 / 0.0459 / 0.0787 |
| UCUCCA | 2.28 | 1.68 / 2.03 / 1.53 | 0.0666 / 0.0907 / 0 | 0.0161 / 0.0306 / 0.0393 |
| UCUCGA | 0.475 | 0.406 / 0.442 / 0.246 | 0 / 0.0302 / 0 | 0 / 0 / 0.0197 |
| UCUCUA | 4.25 | 3.88 / 3.68 / 4.67 | 0.167 / 0.272 / 0.0517 | 0.0482 / 0.199 / 0.0393 |
| UCUGAA | 4.93 | 4.71 / 5.38 / 5.82 | 0.400 / 0.181 / 0.0258 | 0.0643 / 0.0764 / 0.0393 |
| UCUGCA | 1.82 | 0.600 / 1.13 / 1.08 | 0.200 / 0.0302 / 0 | 0 / 0.0306 / 0.0197 |
| UCUGGA | 4.70 | 1.75 / 2.11 / 1.81 | 0.133 / 0.242 / 0.284 | 0.0482 / 0.0917 / 0.0393 |
| UCUGUA | 5.45 | 2.01 / 2.26 / 1.74 | 0.0666 / 0.272 / 0.0517 | 0.0161 / 0.122 / 0.0393 |
| UCUUAA | 5.94 | 4.04 / 4.89 / 4.29 | 0.666 / 0.847 / 0.413 | 0.0322 / 0.0764 / 0.0984 |
| UCUUAC | 0.231 | 0.0882 / 0.0327 / 0 | 0 / 0 / 0 | 0 / 0.0153 / 0 |
| UCUUCA | 0.951 | 1.68 / 1.85 / 2.27 | 0.400 / 0.333 / 0.336 | 0.0965 / 0.122 / 0.197 |
| UCUUGA | 4.74 | 5.38 / 5.92 / 6.41 | 0.666 / 0.302 / 0.103 | 0.0965 / 6.86 / 0.157 |
| UCUUUA | 4.47 | 5.15 / 4.43 / 4.40 | 0.0333 / 0.363 / 0.0258 | 0.0482 / 0.0611 / 0.0393 |
| UGAAAA | 3.35 | 1.76 / 1.82 / 2.59 | 0.233 / 0.181 / 0.0517 | 0 / 0.0611 / 0.0590 |
| UGAACA | 1.21 | 0.212 / 0.573 / 0.624 | 0.0333 / 0.0907 / 0.0775 | 0 / 0.0153 / 0.0197 |
| UGAAGA | 2.99 | 6.97 / 8.36 / 7.16 | 2.00 / 0.242 / 0.0517 | 0.0322 / 0.107 / 0.0984 |
| UGAAUA | 6.14 | 10.6 / 9.00 / 9.89 | 1.60 / 0.454 / 0.594 | 0.0482 / 0.168 / 0.138 |
| UGACAA | 3.15 | 2.01 / 2.41 / 1.83 | 0 / 0.181 / 0.491 | 0 / 0.0459 / 0 |
| UGACCA | 2.04 | 0.547 / 0.835 / 0.699 | 0.100 / 0 / 0 | 0.0322 / 0.0153 / 0.0590 |
| UGACCG | 0.0136 | 0 / 0 / 0 | 0 / 0 / 0 | 0 / 0 / 0 |
| UGACGA | 4.59 | 1.45 / 1.83 / 1.32 | 0.100 / 0.0302 / 1.11 | 0 / 0.0306 / 0.0197 |
| UGACUA | 4.74 | 2.15 / 2.50 / 1.70 | 0.133 / 0.121 / 0.0517 | 0.0161 / 0.0153 / 0.0984 |
| UGAGAA | 4.58 | 0.899 / 1.11 / 0.888 | 0.0333 / 0.151 / 0.0775 | 0.0161 / 0.0153 / 0.0393 |
| UGAGCA | 5.65 | 1.85 / 2.18 / 2.19 | 0 / 0.151 / 0.0517 | 0.0322 / 0.153 / 0.0787 |
| UGAGGA | 4.24 | 1.52 / 1.60 / 1.36 | 0.666 / 0.121 / 0.491 | 0.0804 / 0.0306 / 0.0197 |
| UGAGUA | 5.19 | 5.64 / 6.37 / 6.99 | 2.73 / 0.151 / 0.258 | 0.0482 / 0 / 0.236 |
| UGAUAA | 3.71 | 3.33 / 3.52 / 3.44 | 0.600 / 0.242 / 0.0517 | 0.0643 / 0.0764 / 0.0787 |
| UGAUCA | 1.94 | 1.23 / 1.64 / 0.964 | 0.133 / 0.242 / 0.439 | 0.0322 / 0.0764 / 0.0787 |
| UGAUGA | 5.41 | 2.77 / 3.55 / 3.16 | 0.267 / 0.635 / 0.129 | 0.0643 / 0.168 / 0.0590 |
| UGAUUA | 4.77 | 5.31 / 5.99 / 5.82 | 1.47 / 0.635 / 0.517 | 0.0965 / 0.107 / 0.0787 |
| UGCAAA | 4.12 | 0.705 / 1.31 / 1.02 | 0.0333 / 0.151 / 0.853 | 0.0322 / 0.0306 / 0.0590 |
| UGCACA | 0.448 | 0.159 / 0.229 / 0.265 | 0 / 0.0302 / 0 | 0 / 0 / 0 |
| UGCAGA | 2.17 | 3.26 / 3.37 / 3.10 | 0.300 / 0 / 0 | 0.0322 / 0.0153 / 0.118 |
| UGCAUA | 4.58 | 4.00 / 4.94 / 3.52 | 0 / 0.0605 / 0.181 | 0.0161 / 0.0153 / 0.0984 |
| UGCCAA | 4.40 | 3.00 / 2.81 / 2.95 | 0.100 / 0.272 / 0.0517 | 0.0322 / 0.0306 / 0.0197 |
| UGCCCA | 5.11 | 2.80 / 3.04 / 2.51 | 0 / 0.121 / 0.336 | 0.0161 / 0.0153 / 0.0590 |
| UGCCGA | 1.02 | 0.899 / 1.28 / 1.34 | 0 / 0.0907 / 0 | 0 / 0 / 0 |

Samples held 30,013 to 65,426 reads, so the smallest values rest on one or two reads.
Wild type was 39.4 per thousand in the pool and the most common sequence in every sample (inoculated region 155, 124, 130; leaf margin 823, 907, 920; systemic leaves 805, 787, 933).